Experimental data as given in article PMC11274511, “Synthesis of Substituted 1,2,4-Triazole-3-Thione Nucleosides Using E. coli Purine Nucleoside Phosphorylase” (Biomolecules, 2024).

Test system: HSV-1/L2/R^ACV
Conditions: Strain HSV-1/L2/R^ACV
Protocol: Herpes simplex virus type 1 (HSV-1) strain L2 was obtained from the State’s collection of viruses at FSBI «N. F. Gamaleya National Research Centre for Epidemiology and Microbiology, Russian Ministry of Health, Russia» («D. I. Ivanovsky Institute of Virology» subdivision).
Antiviral activity in vitro was measured by the method of the cytopathic effect (CPE) inhibition assay. In 96-well plastic plates with the 24 h generated cell monolayer, 2-fold serial dilutions of the compounds were prepared. Cells infected with MOI of 0.1 PFU/cell were incubated at 37 °C in 5% CO2 atmosphere. […] Antiviral activity was assessed by determining of IC50 and IC95.
Three controls were used: (1) Toxicity control. Uninfected cells were incubated in the presence of the drug in the same concentration range as in the experiment. (2) Virus control. […] (3) Cell control. Uninfected cell cultures were incubated in the maintenance medium, which contained no drug.

NC(=O)c1ncn([C@@H]2O[C@H](CO)[C@@H](O)[C@H]2O)n1 [Ribavirin, reference compound]
SI (ratio of CC50 to IC50): >2
